# In US20080227220A1, “Lateral Flow Binding Assay” (priority 2004, published 2008):
# System: antibiotic binding protein (PBP)
# Assay: Lateral flow test strip for detection of β-lactams in milk (sequential assay)
# Parameters: species or system Bacillus stearothermophilus
# Conditions: milk sample 0.1 mL; 5 min then 10 min incubation at 64° C.; capture line vs reference line read visually
row,Structure (SMILES),Sensitivity
1,"CC1(C)S[C@@H]2[C@H](NC(=O)[C@H](N)c3ccc(O)cc3)C(=O)N2[C@H]1C(=O)O [Amoxicillin, amoxicillin]",4 ppb
2,"CC1(C)S[C@@H]2[C@H](NC(=O)[C@H](N)c3ccccc3)C(=O)N2[C@H]1C(=O)O [Ampicillin, ampicillin]",4 ppb
3,"CO/N=C(\C(=O)N[C@@H]1C(=O)N2C(C(=O)O)=C(CSC(=O)c3ccco3)CS[C@H]12)c1csc(N)n1 [Ceftiofur, ceftiofur]",4 ppb
4,"Cc1onc(-c2ccccc2Cl)c1C(=O)N[C@@H]1C(=O)N2[C@@H]1SC(C)(C)[C@@H]2C(=O)O [Cloxacillin, cloxacillin]",60 ppb
5,"CC1(C)S[C@@H]2[C@H](NC(=O)Cc3ccccc3)C(=O)N2[C@H]1C(=O)O [Penicillin G, penicillin G]",4 ppb
